Data as given in PubChem BioAssay AID1259414 (Drosophila RNAi Screening Center, 2018)

Test: 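Fly genes that alter Wolbachia amount inside host cells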 (primary screen)
Cells: Drosophila JW18 cells infected with Wolbachia
Reagents: long dsRNA against Drosophila genes, 0.25 µg dsRNA per well of a 384-well plate
Time to read-out: 5 days
Treatment: cells persistently infected with Wolbachia before knock-down; no added drug
Measured: 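Automated imaging of bacterial rRNA staining divided by host cell count, reported as plate-normalised robust z-score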
Direction: Wolbachia per cell robust z: higher = more Wolbachia per host cell than the plate typical
Active means: 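Active if absolute robust z reaches 1.5 in two or more of three replicates, leaving out multi- or no-target dsRNAs, genes unexpressed in JW18 and A1 wells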
The screen tested about 24,000 reagents; this is an unselected part of those with a known target gene and a result. In the full data, about 1,210 (5%) got an active call. 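Inactive calls also include excluded dsRNAs with several or no targets, genes unexpressed in JW18, and well A1, regardless of score.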 A number with no mark means an inactive call. Reagents against one gene are numbered here.

Jupiter #1 | Wolbachia per cell robust z, rep 1: -1.66; Wolbachia per cell robust z, rep 2: -1.24; Wolbachia per cell robust z, rep 3: 0.0896
Jupiter #2 | Wolbachia per cell robust z, rep 1: -4.33 (active); Wolbachia per cell robust z, rep 2: 0.484; Wolbachia per cell robust z, rep 3: -3
Jupiter #3 | Wolbachia per cell robust z, rep 1: -0.0328; Wolbachia per cell robust z, rep 2: -1.7; Wolbachia per cell robust z, rep 3: 0.275
Jupiter #4 | Wolbachia per cell robust z, rep 1: -0.19; Wolbachia per cell robust z, rep 2: 0.71; Wolbachia per cell robust z, rep 3: 0.767
nes (nessy) | Wolbachia per cell robust z, rep 1: 1.07; Wolbachia per cell robust z, rep 2: -0.102; Wolbachia per cell robust z, rep 3: 0.263
Mtk (Metchnikowin) #1 | Wolbachia per cell robust z, rep 1: -0.77 (active); Wolbachia per cell robust z, rep 2: -4.13; Wolbachia per cell robust z, rep 3: -1.57
Mtk (Metchnikowin) #2 | Wolbachia per cell robust z, rep 1: 0.00307; Wolbachia per cell robust z, rep 2: -2.16; Wolbachia per cell robust z, rep 3: -0.787

2 entries from above, limited to “Wolbachia per cell robust z, rep 2”:
Mtk (Metchnikowin) #1: -4.13 (active)
Mtk (Metchnikowin) #2: -2.16

The list goes on.
CG11317 | Wolbachia per cell robust z, rep 1: -2.61; Wolbachia per cell robust z, rep 2: -0.366; Wolbachia per cell robust z, rep 3: 0.21
Dpp10 (Dipeptidyl peptidase 10) #1 | Wolbachia per cell robust z, rep 1: 1.58; Wolbachia per cell robust z, rep 2: 0.768; Wolbachia per cell robust z, rep 3: 0.184
Dpp10 (Dipeptidyl peptidase 10) #2 | Wolbachia per cell robust z, rep 1: 1.35; Wolbachia per cell robust z, rep 2: 0.523; Wolbachia per cell robust z, rep 3: 0.809
Fkbp14 (FK506-binding protein 14) | Wolbachia per cell robust z, rep 1: 0.359; Wolbachia per cell robust z, rep 2: 0.0762; Wolbachia per cell robust z, rep 3: -0.988
CG6602 | Wolbachia per cell robust z, rep 1: -0.624; Wolbachia per cell robust z, rep 2: 0.0481; Wolbachia per cell robust z, rep 3: -0.432
hpRNA:CR32207 (hairpin RNA:CR32207) | Wolbachia per cell robust z, rep 1: -0.912; Wolbachia per cell robust z, rep 2: 0.203; Wolbachia per cell robust z, rep 3: -0.26
Lk6 (Lk6 kinase) #1 | Wolbachia per cell robust z, rep 1: -2.12; Wolbachia per cell robust z, rep 2: 0.0764; Wolbachia per cell robust z, rep 3: 0.147
Lk6 (Lk6 kinase) #2 | Wolbachia per cell robust z, rep 1: 0.0906; Wolbachia per cell robust z, rep 2: -0.514; Wolbachia per cell robust z, rep 3: -1.07
Lk6 (Lk6 kinase) #3 | Wolbachia per cell robust z, rep 1: -2.01 (active); Wolbachia per cell robust z, rep 2: -0.182; Wolbachia per cell robust z, rep 3: -2.14
